Laboratory results taken from paper PMC4347857, “Characterization of the Mycobacterial Acyl-CoA Carboxylase Holo Complexes Reveals Their Functional Expansion into Amino Acid Catabolism” (PLoS Pathogens, 2015).

Test system: CC(C)=CC(=O)SCCNC(=O)CCNC(=O)[C@H](O)C(C)(C)COP(=O)(O)OP(=O)(O)OC[C@H]1O[C@@H](n2cnc3c(N)ncnc32)[C@H](O)[C@@H]1OP(=O)(O)O
Test: purified protein
Conditions: pH 7.6; 30.0 °C

## AccD1-AccA1 holo complex (M. tuberculosis MCC) (Mycobacterium tuberculosis H37Rv)
  Km: 0.22 ± 0.05 mM
